System: HIV-1
Test: HIV-1 infection of primary cells in vitro (p24)
Assay type: cell-based
Settings: controls at similar, equimolar or higher concentrations
Method: Virus (MOI of 0.001) was added to 10^6 cells in RPMI-1640 with 10% FCS. One hour later the various polypeptides were added once. The cells cultured for 3 days with 5 ug PHA and 20 i.m. of II-2/ml at 37°, after which virus was estimated by determining p24 (HIV-1) or p27 (SIV) (Organon-Teknika).
The effect of native and synthetic MA on HIV-1 infection in vitro was evaluated using PHA and II-2 stimulated primary peripheral blood cells (PBMC), CD4+ T-cells enriched fractions from PBMC, and CD14+ macrophage enriched fractions. Infection was with HIV-1 IIIB (PBMC and CD4+ T-cells), HIV-1 Ba-L (macrophages), and two primary HIV-1 isolates not passaged in any cell line (PBMC).

“CR127: highly purified native hCG [reference compound]” was tested, and the “inhibition of HIV replication (qualitative)” value was “No inhibition”.
